Anti-infective test results gathered from many reports (values: NIAID ChemDB through PubChem).

All rows: toxicity to cultured cells; cells: PBMC; measure: CC50

CCn: concentration that lowers growth or viability of the cells by n%.

SMILES	read by	value
Nc1nc2c(ncn2C[C@H]2C[C@H]2[C@H](O)CO)c(=O)[nH]1	-	>100 µM
Nc1ccn([C@@H]2C=C(F)[C@H](CO)O2)c(=O)n1	-	86.9 µM
OC[C@@H]1C[C@H](F)[C@H](n2cnc3c(F)ncnc32)O1	-	>80 µM
CN(CCc1ccc2c(n1)NCCC2)C(=O)N(C)c1cccc(F)c1	-	50 µM
COCCCCCCCCCCCC(=O)O	-	340 µM
O=C(CNC(=O)COc1ccccc1)NCc1ccc(C(=O)N2CCCCC2)cc1	MTS	>100 µM
Cc1cn(C[C@H]2C[C@H]2[C@H](O)CO)c(=O)[nH]c1=O	-	>100 µM
C#C[C@]1(OCP(=O)(O)O)C[C@@H](n2cnc3c(N)ncnc32)C=C1F	MTT	≥10 µM
COc1cc2ccnc3c2c(c1OCCCCCCCCCOc1c(OC)cc2ccnc4c2c1N(C)C=C4)N(C)C=C3	-	1.1 µM
O=c1[nH]c(=O)n([C@H]2C[C@H](O)[C@@H](CO)O2)cc1C12B3B4B5B6B(B3B1B42)B1B5C61	-	>100 µM
OC[C@@H]1C[C@H](F)[C@H](n2cnc3c(F)ncnc32)O1	-	>80 µM
COc1cccc2ccc(/C=C/C(=O)Nc3ccccc3F)nc12	MTT	9.56 µM
C[C@H]1[C@H](O)[C@@H](C)/C=C/C=C/C=C/C=C/C=C/C=C/C=C/[C@H](O[C@@H]2O[C@H](C)[C@@H](O)[C@H](N)[C@@H]2O)C[C@@H]2O[C@](O)(C[C@@H](O)C[C@@H](O)CC[C@H](O)[C@@H](O)C[C@@H](O)CC(=O)O[C@H]1C)C[C@H](O)[C@H]2C(=O)O	MTT	>25 µM
COc1ccc2nc(Cl)c(/C=C/C(=O)c3sccc3Br)cc2c1	MTS	2.5 µM
CCCCCCCCCN1C=Cc2nccc3cc(OC)c(OC)c1c23	-	1.4 µM
Nc1ncnc2c1ncn2[C@@H]1O[C@@H](CO)CC1(F)F	-	>100 µM
CN1c2ccccc2C2C1C=C(C#N)C(=O)N2c1ccc([N+](=O)[O-])cc1	trypan blue	>50 µM
CCOc1ncnc2c1ncn2[C@@H]1O[C@H](CO)C[C@@H]1F	-	>80 µM
Cn1cc(C(=O)O)c(=O)c2cc(F)c(N3CC=C(c4ccccc4)CC3)c(C(F)(F)F)c21	-	>1 µM
Nc1ccn([C@H]2C=C[C@@H](CO)O2)c(=O)n1	-	65 µM
Nc1ccn([C@@H]2O[C@@H](CO)CC2(F)F)c(=O)n1	-	>100 µM
Nc1nc2c(ccn2[C@H]2C=C[C@@H](CO)C2)c(=O)[nH]1	-	>100 µM
C/C(=N\NC(=O)c1ccc([N+](=O)[O-])cc1)c1cccc(/C(C)=N/NC(=O)c2ccc([N+](=O)[O-])cc2)n1	MTT	>100 µM
C=C(C)[C@@H]1CC[C@]2(C(=O)NCCCCCCCC(=O)N[C@@H](CC(C)C)[C@@H](O)CC(=O)O)CC[C@]3(C)[C@H](CC[C@@H]4[C@@]5(C)CC[C@H](O)C(C)(C)[C@@H]5CC[C@]43C)[C@@H]12	-	>3 µM
COc1ccccc1CNC(=O)C1=Cc2ccncc2CC1	-	>177.8 µM
O=C(O)CCCCCNC1c2ccc3cc4c5c6c(cc7ccc8cc9cc1c1c9c9c8c7c6c9c6c1c2c3c56)C4	trypan blue	>1000 µM
O=C(NCCc1ccc2c(n1)NCCC2)Nc1ccc(Br)c2ccccc12	-	2.2 µM
N#CC1=CC2Nc3ccccc3C2N(c2ccc([N+](=O)[O-])cc2)C1=O	trypan blue	80 µM
O=C(NCCc1ccc2c(n1)NCCC2)Nc1cccc2ocnc12	-	22 µM
COc1ccnc2[nH]cc(C(=O)C(=O)N3CCN(C(=O)c4ccccc4)C[C@H]3C)c12	MTT	0.04 µM
C#Cc1c[nH]c(=O)[nH]c1=O	-	>100 µM
Fc1ccc(NC(=S)NCCc2ccc3c(n2)NCCC3)cc1C(F)(F)F	-	6.87 µM
O=c1[nH]c(=O)n([C@@H]2O[C@@H](CO)CC2(F)F)cc1F	-	>100 µM
COc1cc2ccnc3c2c(c1OCCCCCCOc1c(OC)cc2ccnc4c2c1N(C)C=C4)N(C)C=C3	-	<1 µM
CCN(CC)C(=O)OC[C@@H]1CN(C(=O)c2ccccc2)CCN1C(=O)C(=O)c1c[nH]c2nccc(OC)c12	MTT	>125 µM
COc1ccc2nc(Cl)c(/C=C/C(=O)c3cc(C)cs3)cc2c1	MTS	15.5 µM
Nc1nc(=O)n([C@@H]2O[C@@H](CO)CC2(F)F)cc1I	-	>100 µM
O=C1CCC(=O)N1CCCCCCc1ccc2c3ccccc3c3ccccc3c2c1	trypan blue	1.2 µM
O=c1[nH]c(=O)n([C@H]2O[C@@H](CO)CC2(F)F)cc1F	-	>100 µM
CC(C)c1ccccc1NC(=O)NCCc1ccc2c(n1)NCCC2	-	0.8 µM
C/C(=C/C(=O)c1cccnc1)Nc1ccc(O)cc1	MTS	>100 µM
O=C(NCCc1ccccc1)C1=Cc2ccncc2CC1	-	278 µM
CCCCCCC[n+]1ccc2cc(OC)c(OC)c3c2c1C=CN3	-	1.1 µM
CC(C)(C)OC(=O)N1[C@H](CO)CC(F)(F)[C@@H]1n1cc(F)c(=O)[nH]c1=O	-	28.2 µM
O=c1[nH]cnc2c1ncn2[C@@H]1O[C@H](CO)C[C@@H]1F	-	>80 µM
COc1ccc(NC(=O)NCCc2ccc3c(n2)NCCC3)c(OC)c1	-	2 µM
C=C1CN(S(=O)(=O)c2ccc(C)cc2)CCCN(Cc2ccccc2)CCCN(S(=O)(=O)c2ccc(C)cc2)C1	-	>30 µM
CC(C)(C)OC(=O)N1[C@H](CO)CC(F)(F)[C@H]1n1cc(F)c(=O)[nH]c1=O	-	30.5 µM
OC[C@@H]1C[C@H](F)[C@H](n2cnc3c(I)ncnc32)O1	-	>80 µM
CCC[n+]1ccc2cc(OC)c(OC)c3c2c1C=CN3	-	1.4 µM
O=c1[nH]cnc2c1ncn2[C@H]1O[C@@H](CO)CC1(F)F	-	>100 µM
NNc1ncnc2c1ncn2[C@@H]1O[C@H](CO)C[C@@H]1F	-	>80 µM
CC(C)c1ccccc1NC(=O)NCCc1cccc(-n2ccnc2)n1	-	22 µM
CC(C)Oc1ccccc1CNC(=O)c1ccc2cnccc2n1	-	18.6 µM
NC(=O)c1cn([C@H]2CS[C@H](CO)O2)cn1	-	>100 µM
CC(C)Nc1cccnc1N1CCN(C(=O)c2cc3cc(F)ccc3[nH]2)CC1	-	>10 µM
O=C(NCCCCc1ccc2c(n1)NCCC2)NCc1ccc(Cl)c(Cl)c1	-	50 µM
CC#C[C@]1(O)CC[C@H]2[C@@H]3CCC4=CC(=O)CCC4=C3[C@@H](c3ccc(N(C)C)cc3)C[C@@]21C	MTT	36 µM
COc1cc2ccnc3c2c(c1OS(C)(=O)=O)N(C)C=C3	-	1.8 µM
O=C(NCCc1ccc2c(n1)NCCC2)NCc1ccc(F)cc1	-	50 µM
COc1ccc2nc(Cl)c(/C=C/C(=O)c3ccc(C)s3)cc2c1	MTS	13 µM
COc1ncc(C#C[Si](C)(C)C)c(OC)n1	-	≥100 µM
O=C(O)[C@H]1O[C@@H](Oc2cc3oc(-c4ccc(O)cc4)cc(=O)c3c(O)c2O)[C@H](O)[C@@H](O)[C@@H]1O	MTT	336 µM

For reference, 8 entries again:

SMILES | read by | value
Nc1nc2c(ccn2[C@H]2C=C[C@@H](CO)C2)c(=O)[nH]1 | - | >100 µM
Nc1ncnc2c1ncn2[C@@H]1O[C@@H](CO)CC1(F)F | - | >100 µM
O=C(NCCc1ccc2c(n1)NCCC2)NCc1ccc(F)cc1 | - | 50 µM
COc1ccc(NC(=O)NCCc2ccc3c(n2)NCCC3)c(OC)c1 | - | 2 µM
C#Cc1c[nH]c(=O)[nH]c1=O | - | >100 µM
C/C(=C/C(=O)c1cccnc1)Nc1ccc(O)cc1 | MTS | >100 µM
Nc1ccn([C@H]2C=C[C@@H](CO)O2)c(=O)n1 | - | 65 µM
COCCCCCCCCCCCC(=O)O | - | 340 µM

Blank or dashed fields: not listed here. Rows are shuffled and stem from different studies.